US20130164308A1, “Staphylococcus aureus specific antibodies and uses thereof” (RINAT NEUROSCIENCE, published 2013)

B1: DF1.1 variant HCDR3-E5A (antibody, V domains shown)
VH: QVQLVQSGAEVKKPGSSVKVSCKTSGGTFNNVAINWVRQAPGQGLEWMGGIIPGLDTPNYAQKFQGRVTITADKSTTSTYLELSSLRSDDTAVYYCAREMAVSGRWRPTEAFEIWGQGTMVTVSS
VL: ETTLTQSPGTLSLSPGERATLSCRASQTISNNFVAWYQQKPGQAPRLLIYGASTRATGIPDRFSGSGSGTDFTLTISSLEPEDFAVYYCQQYGSSPYTFGQGTKVDIK
B2: DF1.1 variant HCDR3-G8R (antibody, V domains shown)
VH: B1 VH with A101E, G104R
VL: B1 VL

Target: S. aureus alpha-toxin (purified, Calbiochem cat. no. 616385) (Staphylococcus aureus, UniProt P09616 27-319)
Test: cell-based or functional assay

Binder	REL* EC50 (rabbit erythrocyte lysis, 2 nM alpha-toxin) [nM]
B1	0.3
B2	0.25

Substitutions are numbered along the chain they refer to. In names and notes the source's numbering stands.
